Pooled drug test results. Numbers come from NIAID ChemDB, via PubChem.

Common to all: tests in culture; organism: Mycobacterium tuberculosis

Blank or dashed fields: not listed here.

smiles,dose,strain,read-out,read by,setting,value
Clc1ccc(-c2c(C(c3ccccc3)n3ccnc3)cnn2-c2ccc(Cl)cc2)cc1,,ATCC 27294,MIC90,,,27.3 µM
CCS(=O)(=O)c1nnc(-c2ccc([N+](=O)[O-])o2)s1,6.25 µg/mL,H37Rv,inhibition,,,100%
CO[C@H]1/C=C/O[C@@]2(C)Oc3c(C)c(O)c4c(O)c(c(N5CCN(Cc6c(C)cc(C)cc6C)CC5)c(O)c4c3C2=O)NC(=O)/C(C)=C\C=C\[C@H](C)[C@H](O)[C@@H](C)[C@@H](O)[C@@H](C)[C@H](OC(C)=O)[C@@H]1C,,H37Rv,MBC,,,0.5 µg/mL
Cc1ncc(C(=O)O)c(C(=O)O)c1N,6.25 µg/mL,H37Rv,inhibition,resazurin,,7%
COC1=NN(c2ccc(CNC(=O)c3c(C(F)F)nc4ncc(Cl)cn34)cc2F)CCN1S(=O)(=O)C(F)(F)F,,,EC50,GFP,,0.0024 µM
CC1=C(O)C(C)(C2CCCCC2)SC1=O,,H37Rv,MIC,,,>1000 µM
N#C/C(=C\c1ccc(N)cc1)n1nc2ccccc2n1,,,EC50,,,>12.5 µg/mL
CC(C)=CCC/C(C)=C/CC/C(C)=C/CC/C(C)=C/C=C/C=C(\C)CC/C=C(\C)CC/C=C(\C)CCC=C(C)C,,H37Rv,MIC,BACTEC,,≥12.5 µg/mL
CCc1nc2cc(C)c(C)cn2c1C(=O)NCc1ccc(N2CCN(S(=O)(=O)C(F)(F)F)C=N2)c(F)c1,,,EC50,GFP,,0.0057 µM
CC[C@@H](CO)NCCN[C@@H](CC)CO,,K137,MIC,,,128 µg/mL
CC(C)c1ccc2c(c1)CCC1C2(C)CCCC1(C)C(O)c1ccccc1,,H37Rv,MIC,BACTEC,,12.5 µg/mL
CO[C@H]1/C=C/O[C@@]2(C)Oc3c(C)c(O)c4c(O)c(c5c(c4c3C2=O)NC2(CCN(CC(C)C)CC2)N=5)=NC(=O)/C(C)=C\C=C\[C@H](C)[C@H](O)[C@@H](C)[C@@H](O)[C@@H](C)[C@H](OC(C)=O)[C@@H]1C,,30 isolates/HIV+,MIC50,,,0.5 µg/mL
CCCCS(=O)(=O)Nc1ccc(C(=O)NNC(C)=O)cc1,12.5 µg/mL,H37Rv,inhibition,BACTEC,,0%
N#C/C(=C\c1ccc(Br)cc1)n1nnc2ccccc21,,,EC50,,,<12.5 µg/mL
Oc1ccc2ccccc2c1C1=NNc2n[nH]c(=S)n2N1,12.5 µg/mL,H37Rv,inhibition,BACTEC,,0%
NNC(=O)CNc1ccc2ccccc2c1,1 µg/mL,H37Rv,inhibition,,21 d,100%
C[C@H](N)C(=O)N[C@@H]1[C@H]2C(=C(O)C[C@@H](O)[C@@H]2O)C(=O)O[C@]1(C)C(Cl)Cl,12.5 µg/mL,H37Rv,inhibition,BACTEC,,97%
CC(C)=CCC1(C)SC(=O)C(C)=C1O,,H37Rv,MIC,,,>1000 µM
CCN1CCC2(CC1)N=c1c(c3c4c5c(C)c(O)c3c(O)c1=NC(=O)/C(C)=C\C=C\[C@H](C)[C@H](O)[C@@H](C)[C@@H](O)[C@@H](C)[C@H](OC(C)=O)[C@H](C)[C@@H](OC)/C=C/O[C@@](C)(O5)C4=O)N2,,H37Rv,MIC,,,0.005 µg/mL
O=C(N=Nc1c(O)[nH]c2ccccc12)c1ccncc1,,Human resistant isolate,MIC,,,2.7 µg/mL
N#C/C(=C\c1ccccc1)n1nnc2ccccc21,,,MIC,,,6.25 µg/mL
CCCN1CCC2(CC1)N=c1c(c3c4c5c(C)c(O)c3c(O)c1=NC(=O)/C(C)=C\C=C\[C@H](C)[C@H](O)[C@@H](C)[C@@H](O)[C@@H](C)[C@H](OC(C)=O)[C@H](C)[C@@H](OC)/C=C/O[C@@](C)(O5)C4=O)N2,,H37Rv,MIC,,,0.005 µg/mL
NC(=O)CNS(=O)(=O)c1ccc(-c2nnn(Cc3ccc(Cl)cn3)n2)cc1,,H37Rv,MIC,resazurin,,<0.1 µM
O=C(N=Nc1c(O)n(Cc2ccccc2)c2ccccc12)c1ccncc1,,BOVIN,MIC,,,3.5 µg/mL
O=S(=O)(NCCO)c1ccc(-c2cn(Cc3ccc(F)cc3)nn2)cc1,,H37Rv,MIC,resazurin,,<0.1 µM
N#C/C(=C\c1ccc(F)cc1)n1nc2ccccc2n1,,,EC50,,,>12.5 µg/mL
Fc1ccccc1-c1c(C(c2ccccc2)n2ccnc2)cnn1-c1ccccc1F,,ATCC 35822 (isoniazid-resistant),MIC50,,,≥100 µM
COc1cc(-c2nnn(Cc3ccc(C#N)cc3)n2)ccc1S(=O)(=O)NCCO,,H37Rv,MIC,resazurin,,0.1–1 µM
Cc1cn([C@H]2C[C@H](CCN(O)C[C@H]3O[C@@H](n4cc(C)c(=O)[nH]c4=O)C[C@@H]3O)[C@@H](CO)O2)c(=O)[nH]c1=O,,H37Rv,MIC bound,resazurin,,>6.25 µg/mL
CCS(=O)c1nnc(-c2ccc([N+](=O)[O-])o2)s1,6.25 µg/mL,H37Rv,inhibition,,,100%
FC(F)(F)c1ccccc1NC(=S)SCc1ccc2c(c1)OCO2,128 µg/mL,H37Rv,inhibition,BACTEC,,100%
O=S(=O)(NCCO)c1ccc(-c2nnn(Cc3cccnn3)n2)cc1,,H37Rv,MIC,resazurin,,10–25 µM
CO[C@H]1/C=C/O[C@@]2(C)Oc3c(C)c(O)c4c(O)c(c5c(c4c3C2=O)NC2(CCN(C(C)C)CC2)N=5)=NC(=O)/C(C)=C\C=C\[C@H](C)[C@H](O)[C@@H](C)[C@@H](O)[C@@H](C)[C@H](OC(C)=O)[C@@H]1C,,H37Rv,MIC,,,0.005 µg/mL
N#C/C(=C\c1ccc(Br)cc1)n1nc2ccccc2n1,,,EC50,,,>12.5 µg/mL
Clc1ccc(-n2ncc(C(c3ccccc3)n3ccnc3)c2-c2ccccc2)cc1,,ATCC 35828 (pyrazinamide-resistant),MIC90,,,≥100 µM
Cc1ccc(S(=O)(=O)N/N=C(\CC(=O)c2c(C)n([O-])c3ccccc3[n+]2=O)C(=O)Nc2ccccc2C)cc1,,H37Rv,MIC bound,BACTEC,,>12.5 µg/mL
O=[N+]([O-])c1ccc(CSc2nnc(-c3ccc([N+](=O)[O-])o3)s2)cc1,6.25 µg/mL,H37Rv,inhibition,,,99%
Fc1ccc(-n2ncc(C(c3ccccc3)n3ccnc3)c2-c2ccccc2)c(F)c1,,ATCC 35822 (isoniazid-resistant),MIC50,,,≥100 µM
O=C1C(Cl)=C(N=Nc2c(Cl)c(O)c3ccccc3c2O)C(=O)c2ccccc21,,H37Rv,MIC bound,BACTEC,,≤12.5 µg/mL
O=S(=O)(NCCO)c1ccc(-c2nnn(Cc3ccc(F)cn3)n2)c(F)c1F,,H37Rv,MIC,resazurin,,<0.1 µM
CC1=C(O)C(C)(Cc2cc(Cl)cc(Cl)c2)SC1=O,,H37Rv,MIC,,,500 µM
CC(=O)NS(=O)(=O)c1ccc(N=NC2C(=O)N(C(=O)c3ccncc3)N=C2C)cc1,,H37Rv,MIC bound,BACTEC,,>12.8 µg/mL
Fc1ccc(-c2c(C(c3ccccc3)n3ccnc3)cnn2-c2ccccc2)cc1,,ATCC 35820 (streptomycin-resistant),MIC90,,,≥100 µM
COc1ccc2c(=O)n(-c3ccc([N+](=O)[O-])cc3)c(=O)oc2c1,,CNCTC MY331/88,MIC,,,16 µM
Clc1ccc(-c2c(C(c3ccccc3)n3ccnc3)cnn2-c2ccc(Cl)cc2Cl)cc1,,ATCC 35837 (ethambutol-resistant),MIC50,,,≥100 µM
CC1=C(O)C(C)(C(C)C)SC1=O,,H37Rv,MIC,,,>1000 µM
CCSc1nnc(-c2ccc([N+](=O)[O-])o2)s1,,H37Rv,MIC,,,0.78 µg/mL
Nc1c(C(=O)Nc2ccc(S(N)(=O)=O)cc2)[n+]([O-])c2ccccc2[n+]1[O-],,H37Rv,MIC bound,BACTEC,,>12.5 µg/mL
Cc1cc(O)c2c(c1)C(=O)c1c(oc3c1c(=O)oc1cccc(C)c13)C2=O,,H37Rv (ATCC 27294),MIC,,,4.88 µg/mL
CCCCCCCCC1(C)SC(=O)C(C)=C1O,,H37Rv,MIC,,,500 µM
CSc1nnc(-c2ccc([N+](=O)[O-])o2)s1,6.25 µg/mL,H37Rv,inhibition,,,99%
CCCCCN1CCC2(CC1)N=c1c(c3c4c5c(C)c(O)c3c(O)c1=NC(=O)/C(C)=C\C=C\[C@H](C)[C@H](O)[C@@H](C)[C@@H](O)[C@@H](C)[C@H](OC(C)=O)[C@H](C)[C@@H](OC)/C=C/O[C@@](C)(O5)C4=O)N2,,H37Rv,MIC,,,0.0012 µg/mL
O=[N+]([O-])c1ccc(-c2nnc(S(=O)(=O)Cc3ccc(F)cc3Cl)s2)o1,6.25 µg/mL,H37Rv,inhibition,,,11%
CCc1nc2c(F)cc(Cl)cn2c1C(=O)NCc1ccc(N2CCN(S(=O)(=O)C(F)(F)F)C(C(C)C)=N2)c(F)c1,,,EC50,GFP,,0.0046 µM
COc1nc2ccc(Br)cc2cc1[C@@H](c1ccccc1)[C@@](O)(CCN(C)C)c1cccc2ccccc12,,clinical isolate MAL010119,MIC90,resazurin,,0.03125 µg/mL
CCC(CC)CC1(C)SC(=O)C(C)=C1O,,H37Rv,MIC,,,>1000 µM
O=c1oc2cc(Cl)ccc2c(=O)n1-c1ccccc1,,CNCTC MY331/88,MIC,,,16 µM
COC1C(O)=C2C(=O)OC(C)(O)/C=C/C=C/C=C/C=C\C(c3ccccc3)NC(=O)/C=C/C=C/C=C/C=C/C2(C)C1O,,EMB-R,MIC,,,>12.5 µg/mL
N#C/C(=C\c1ccc(Cl)cc1)n1nnc2ccccc21,12.5 µg/mL,,inhibition,,,86%
CCC1=C(C(=O)NCc2cc(F)c(N3CCN(S(=O)(=O)C(F)(F)F)C=N3)c(F)c2)C2C=C(Cl)C=NC2=N1,,,EC50,GFP,,0.005 µM
COCC1OC(OC2(COC)OC(COC)C(OC)C2OC)C(OC)C(OC)C1OC,,H37Rv,MIC bound,BACTEC,,>12.5 µg/mL
O=c1oc2ccccc2c(=O)n1-c1ccc(Cl)c(Cl)c1,,CNCTC MY331/88,MIC,,,8 µM
NC(=O)CNS(=O)(=O)c1ccc(-c2cn(Cc3ccc(F)cc3)nn2)cc1,,H37Rv,MIC,resazurin,,<0.1 µM
C=CC1CN2CCC1CC2C(=O)c1ccnc2ccc(OC)cc12,,H37Rv,MIC,BACTEC,,≥128 µg/mL
COc1cc(-c2nnn(Cc3ccncc3)n2)ccc1S(=O)(=O)NCC#N,,H37Rv,MIC,resazurin,,<0.1 µM
Fc1ccccc1-c1c(C(c2ccccc2)n2ccnc2)cnn1-c1ccccc1,,ATCC 35822 (isoniazid-resistant),MIC90,,,≥100 µM
O=C(CSc1nnc(-c2ccccc2NC(=O)C(F)(F)F)c(=O)[nH]1)NC(=O)Nc1ccccc1,12.5 µg/mL,H37Rv,inhibition,BACTEC,,0%
O=[N+]([O-])c1ccc(-c2nnc(S(=O)(=O)Cc3ccccc3)s2)o1,6.25 µg/mL,H37Rv,inhibition,,,57%
O=c1ccc2ncccc2n1CCN1CCC(NCc2cc(Cl)c(Cl)cn2)CC1,,Erdman,MIC,resazurin,,0.15 µg/mL
COc1cccc2c1C(=O)c1c(O)c3c(c(O)c1C2=O)CC(O)(C(C)=O)CC3OC1CC(NCC2(O)OC(C(=O)NCCCN(C)C)C(O)C2O)C(O)C(C)O1,,H37Rv,MIC,BACTEC,,≥12.5 µg/mL
CN[C@@H]1[C@H](O[C@H]2[C@H](O[C@H]3[C@H](O)[C@@H](O)[C@H](N=C(N)N)[C@@H](O)[C@@H]3N=C(N)N)O[C@@H](C)[C@]2(O)C=O)O[C@@H](CO)[C@H](O)[C@H]1O,,ATCC 35837 (ethambutol-resistant),MIC50,,,0.1 µM
Cc1ccc(C)c(CS(=O)(=O)c2nnc(-c3ccc([N+](=O)[O-])o3)s2)c1,6.25 µg/mL,H37Rv,inhibition,,,35%
Cc1nnc(N/N=C/c2ccc([N+](=O)[O-])o2)[nH]c1=O,12.5 µg/mL,H37Rv,inhibition,BACTEC,,5%
C=C1CCCC(C)(C)[C@H]1CC/C(C)=C/CC/C(C)=C/Cn1c[n+](C)c2ncnc(N)c21,,,EC50,,,<6.25 µg/mL
Cl.NC1=NC(c2ccccc2)C2=C(N1)C(=O)N(Cc1ccccc1)C2,12.8 µg/mL,H37Rv,inhibition,BACTEC,,39%
COc1ccc(-n2c(=O)oc3cc(C)ccc3c2=O)cc1,,CNCTC MY331/88,MIC,,,31 µM
O=C(NC(=O)c1ccc(Cl)c(Cl)c1)Nc1ccc(Cl)cc1,12.5 µg/mL,H37Rv,inhibition,BACTEC,,0%
O=C(O)c1cn(C2CC2)c2cc(N3CCNCC3)c(F)cc2c1=O,,30 isolates/HIV+,MIC90,,,>16 µg/mL
CC1COc2c(N3CCN(C)CC3)c(F)cc3c(=O)c(C(=O)O)cn1c23,,Erdman,MIC,resazurin,,0.5 µg/mL
O=S(=O)(NCCO)c1ccc(-c2nnn(Cc3ccc(F)cn3)n2)cc1Cl,,H37Rv,MIC,resazurin,,<0.1 µM

A second listing of 5 rows from above:

| smiles | dose | strain | read-out | read by | setting | value |
|---|---|---|---|---|---|---|
| COc1ccc(-n2c(=O)oc3cc(C)ccc3c2=O)cc1 |  | CNCTC MY331/88 | MIC |  |  | 31 µM |
| N#C/C(=C\c1ccc(Br)cc1)n1nc2ccccc2n1 |  |  | EC50 |  |  | >12.5 µg/mL |
| O=[N+]([O-])c1ccc(CSc2nnc(-c3ccc([N+](=O)[O-])o3)s2)cc1 | 6.25 µg/mL | H37Rv | inhibition |  |  | 99% |
| CC(C)=CCC1(C)SC(=O)C(C)=C1O |  | H37Rv | MIC |  |  | >1000 µM |
| CO[C@H]1/C=C/O[C@@]2(C)Oc3c(C)c(O)c4c(O)c(c5c(c4c3C2=O)NC2(CCN(CC(C)C)CC2)N=5)=NC(=O)/C(C)=C\C=C\[C@H](C)[C@H](O)[C@@H](C)[C@@H](O)[C@@H](C)[C@H](OC(C)=O)[C@@H]1C |  | 30 isolates/HIV+ | MIC50 |  |  | 0.5 µg/mL |

ECn: concentration that inhibits the pathogen or its effect by n%. a–b is a range or a potency band. A number after MIC or MFC names an inhibition level or a share of isolates. Lines come from different laboratories, so protocols vary. Percent inhibition refers to the dose given; in toxicity tests it is the harm to the cells. MIC bound: limit read from a one-dose screen.